Anti-infective test results gathered from many reports (values: NIAID ChemDB through PubChem).

All rows: cytotoxicity tests; read-out: CC50

Rows are shuffled and stem from different studies. CCn: concentration that lowers growth or viability of the cells by n%. Blank or dashed fields: not listed here.

compound	method	cell line	result
CCOC(=O)CCCCCOc1cccc(CN(C(=O)c2ccc(-c3cnc(OC)nc3OC)cc2)C(C)C)c1	-	RAJI	>20 µM
CCOC(=O)C1=C(CN2CC(F)(F)[C@@H]3[C@H]2CON3C[C@](C)(O)C(C)(C)C(=O)O)NC(c2nccs2)=N[C@H]1c1cccc(F)c1C	WST / absorbance	HepG2.2.15	>100 µM
O=C(NCCc1ccc2c(n1)NCCC2)Nc1cccc2ccccc12	-	PBMC	0.6 µM
CCOC(=O)C1=C(CN2CC(F)(F)[C@H]3[C@@H]2CCN3CC(F)(F)C(C)(C)C(=O)O)NC(c2nccs2)=N[C@H]1c1cccc(F)c1C	WST / absorbance	HepG2.2.15	13.2 µM
CCCN(Cc1ccc(OCC(=O)O)cc1)C(=O)c1ccc(-c2ccc3c(c2)OCO3)cc1	-	RAJI	>20 µM
CCOC(=O)C1=C(CN2CC(F)(F)[C@@H]3[C@H]2CON3C[C@@H](OC)C(C)(C)C(=O)O)NC(c2nccs2)=N[C@H]1c1ccc(F)c(F)c1Cl	WST / absorbance	HepG2.2.15	32.4 µM
CCOC(=O)c1c(O)c2cc(C(=O)N3CCC(CCCc4ccccc4)CC3)cnc2n(O)c1=O	-	HeLa	<100 µM
O=C(Cc1ccc(Cl)cc1)NCCc1ccc2c(n1)NCCC2	-	PBMC	50 µM
NC(=S)Nc1ccc2c(c1)Cc1ccccc1-2	MTS	Ava5-EG(delta4AB)SEAP	>1 µM
Cc1ccc(CNC(=O)NCCc2cccc(-n3ccnc3)n2)cc1	-	PBMC	27 µM
C[C@H](Nc1cc(=O)n(O)c2ncccc12)c1ccccc1	-	HeLa	<100 µM
O=C(CCc1ccc2c(n1)NCCC2)Nc1ccc(C(F)(F)F)cc1	-	PBMC	8 µM
NC(=S)Nc1cccc(OCCCCCCOc2ccccc2)c1	MTS	Ava5-EG(delta4AB)SEAP	>1 µM
O=c1cc(N2CCc3ccc(-c4cccc(F)c4)cc3C2)c2cccnc2n1O	-	HeLa	<100 µM
CC(C)N(Cc1cccc(OCCCCCC(=O)OC(=O)O)c1)C(=O)c1ccc(-c2ccc3c(c2)OCCO3)cc1	-	BJ	>20 µM
CCOC(=O)c1ccc(OCCCCCOc2cccc(NC(N)=S)c2)cc1	MTS	Ava5-EG(delta4AB)SEAP	>1 µM
COc1cc(OC)cc(-c2ccc(C(=O)N(Cc3cccc(OCCCCCC(=O)OC(=O)O)c3)C(C)C)cc2)c1	-	BJ	>20 µM
CCCCCNC(=S)Nc1cccc(OCCCCCc2ccccc2)c1	MTS	Ava5-EG(delta4AB)SEAP	>1 µM
O=C(NCCc1ccc2c(n1)NCCC2)NCc1ccc(F)c(Cl)c1F	-	PBMC	50 µM
NC(=S)Nc1cccc(OCCCCCCCCc2ccccc2)c1	MTS	Ava5-EG(delta4AB)SEAP	>1 µM
O=c1cc(NCCN2CCOCC2)c2cccnc2n1O	-	HeLa	<100 µM
CCOC(=O)C1=C(CN2CC(F)(F)[C@H]3[C@@H]2CCN3CC[C@@](C)(O)C(=O)O)NC(c2nccs2)=N[C@H]1c1cccc(F)c1C	WST / absorbance	HepG2.2.15	>50 µM
Cc1ccc(-c2ccc(OCCCCCOc3cccc(NC(N)=S)c3)cc2)cc1	MTS	Ava5-EG(delta4AB)SEAP	>1 µM

3 of the rows above, restated:

compound | method | cell line | result
COc1cc(OC)cc(-c2ccc(C(=O)N(Cc3cccc(OCCCCCC(=O)OC(=O)O)c3)C(C)C)cc2)c1 | - | BJ | >20 µM
CCCCCNC(=S)Nc1cccc(OCCCCCc2ccccc2)c1 | MTS | Ava5-EG(delta4AB)SEAP | >1 µM
O=C(CCc1ccc2c(n1)NCCC2)Nc1ccc(C(F)(F)F)cc1 | - | PBMC | 8 µM